The text below walks through data of PubChem BioAssay AID449762 (Southern Research Specialized Biocontainment Screening …, 2010).

Inconclusive results are not listed.

The experiment concerns M. tuberculosis H37Rv growth inhibition, 7H9 media. The experiment in a line: M. tuberculosis growth inhibition, HTS (AID 449762).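 Also: bacterial growth assessed after seven days of incubation.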

As a reminder, the IC50 is the concentration needed to halve the response being measured. As to `O=C(OC1CN2CCC1CC2)C1c2ccccc2Oc2ccccc21` (stereo unspecified), the half-inhibitory concentration (IC50) is 8.17 µM.
